Compound potency records, mixed from different reports. Data source: NIAID ChemDB in PubChem.

All rows: whole-cell or culture tests; species: HIV-1; read-out: EC50

Neighbouring rows are from separate reports.

| SMILES | cell line | mutations | strain or isolate | method | value |
|---|---|---|---|---|---|
| CC(C)=CCC/C(C)=C/COc1ccc2ccc(=O)oc2c1 | C8166 | - | IIIB | ELISA | 59.7 µM |
| NS(=O)(=O)c1ccc(NC(=O)c2ccccc2CSc2ccccc2C(=O)Nc2ccc(S(N)(=O)=O)cc2)cc1 | CEM | - | - | XTT | >100 µM |
| CC(C)=CCOc1cc(NC(=S)c2ccoc2C)ccc1Cl | CEM + CEM-SS | RT-Y181C | Diphenyl sulfone-resistant (RT-Y181C) | cytopathic effect / XTT | 0.9 µM |
| O=C(NC1CC1)c1ccccc1SSc1ccccc1C(=O)NC1CC1 | CEM | - | - | XTT | 24 µM |
| Cc1ccsc1/C=N/NC(=O)CN1CCSCC1 | HeLa | - | - | cell fusion / luminescence | >112 µM |
| Cc1cc(C#N)cc(C)c1Oc1nc(Nc2ccc(C#N)cc2)ncc1SCC(=O)NCCN1CCN(C(=O)OC(C)(C)C)CC1 | MT-4 | Y181C | - | MTT | 0.1362 µM |
| O=C(NCCO)c1ccccc1SSc1ccccc1C(=O)NCCO | CEM | - | - | XTT | 4.5 µM |
| CC(C)=CCOc1cc(NC(=S)c2ccsc2C)ccc1Cl | CEM + CEM-SS | RT-A98G | NL4-3 (RT A98G) | cytopathic effect / XTT | 0.009 µM |
| C/C=C/CSc1cc(NC(=S)c2ccsc2C)ccc1Cl | CEM + CEM-SS | RT-Y188C | NL4-3 | p24 | 0.4 µM |
| NCCCC[C@H](NC(=O)c1ccccc1SSc1ccccc1C(=O)N[C@@H](CCCCN)C(=O)O)C(=O)O | CEM | - | - | XTT | >100 µM |
| Cc1cc(C#N)cc(C)c1Oc1nc(Nc2ccc(C#N)cc2)ncc1SCC(=O)NCCN1CCOCC1 | MT-4 | RES056 | - | MTT | 0.3164 µM |
| C=C(C)C1CC=C(C)/C(=N\NC(=O)Nc2ccccc2)C1 | HeLa | - | - | cell fusion / luminescence | >112 µM |
| O=C(NC(C(=O)O)c1ccccc1)c1ccccc1SSc1ccccc1C(=O)NC(C(=O)O)c1ccccc1 | CEM | - | - | XTT | >100 µM |
| COc1ccc(OCC(=O)N=Nc2c(O)n(C)c3ccccc23)cc1 | HeLa | - | - | cell fusion / luminescence | >112 µM |
| CNC(=O)c1ccccc1SSc1ccccc1C(=O)NC | CEM | - | - | XTT | >11 µM |
| O=C(CCNc1n[nH]c(=O)[nH]c1=O)N/N=C/c1ccccn1 | HeLa | - | - | cell fusion / luminescence | >112 µM |
| C=CCNC(=O)CSc1cnc(Nc2ccc(C#N)cc2)nc1Oc1c(C)cc(C#N)cc1C | MT-4 | RES056 | - | MTT | 0.1717 µM |
| CC(C)C[C@@H](N)C(=O)O | CEM | - | IIIB | - | 1000 µM |
| CC1(C)C=Cc2c(ccc3ccc(=O)oc23)O1 | C8166 | - | IIIB | ELISA | 25.5 µM |
| CCC(=O)c1ccc(NC(=O)c2ccccc2SSc2ccccc2C(=O)Nc2ccc(C(=O)CC)cc2)cc1 | CEM | - | - | XTT | 16 µM |
| Cc1cc(C#N)cc(C)c1Oc1nc(Nc2ccc(C#N)cc2)ncc1SCC(=O)NC1CC1 | MT-4 | RES056 | - | MTT | 0.1165 µM |
| COC(=O)C[C@H](O)[C@H](CC(C)C)NC(=O)[C@H](C)NC(=O)C[C@H](O)[C@H](CC(C)C)NC(=O)[C@@H](NC(=O)[C@H](Cc1c[nH]c2ccccc12)NC(=O)OCc1ccccc1)C(C)C | MT-4 | - | - | syncytia | 10 µM |
| CC1(C)C=Cc2c(cc(O)c3c2O[C@H](c2ccc(O)cc2)CC3=O)O1 | C8166 | - | IIIB | ELISA | 30.1 µM |
| CC(=O)N[C@@H](Cc1c[nH]c2ccccc12)C(=O)N[C@H](C(=O)N[C@@H](CC(C)C)[C@@H](O)CC(=O)N[C@@H](CC(C)C)C(=O)N[C@@H](Cc1ccccc1)C(N)=O)C(C)C | MT-4 | - | - | syncytia | 10 µM |
| COc1cc(OC)c2ccc(=O)oc2c1 | C8166 | - | IIIB | ELISA | 33.8 µM |
| CNC(=O)c1nc([C@]2(C)CSC([C@]3(C)CSC([C@]4(C)CSC(/C=C/c5ccccc5)=N4)=N3)=N2)oc1C | MOLT-4/IIIB + MOLT-4 | - | IIIB | syncytia | >4.7 µM |
| C[C@H](CCC=C(c1cc(Cl)c(O)c(C(=O)O)c1)c1cc(Cl)c(O)c(C(=O)O)c1)[C@H]1CCC2C3C(C[C@H](O)[C@@]21C)[C@@]1(C)CC[C@@H](O)C[C@H]1C[C@H]3O | CEM + CEM-SS | - | RF | syncytia | >150 µM |
| CC[C@H](C)[C@H](NC(=O)C[C@H](O)[C@H](CC(C)C)NC(=O)[C@@H](NC(=O)[C@H](Cc1ccc(O)cc1)NC(=O)OCc1ccccc1)C(C)C)C(=O)N[C@@H](Cc1ccccc1)C(=O)OC | MT-4 | - | - | syncytia | 20 µM |
| Cc1cc(C#N)cc(C)c1Oc1nc(Nc2ccc(C#N)cc2)ncc1SCC(N)=O | MT-4 | E138K | - | MTT | 0.0209 µM |
| NC(=O)C(N)Cc1ccccc1 | CEM | - | IIIB | - | 1000 µM |
| CC12CCC(C/C1=N\NC(=O)Nc1ccccc1)C2(C)C | HeLa | - | - | cell fusion / luminescence | >112 µM |
| CC1(C)C=Cc2cc3ccc(=O)oc3cc2O1 | C8166 | - | IIIB | ELISA | 41.2 µM |
| O=C(NN=C1CCCC1)c1ccccc1O | HeLa | - | - | cell fusion / luminescence | >112 µM |
| NCC(N)C(=O)O | CEM | - | IIIB | - | 1000 µM |
| Cc1cc(C#N)cc(C)c1Oc1nc(Nc2ccc(C#N)cc2)ncc1SCC(=O)NCC1CCCO1 | MT-4 | K103N | - | MTT | 0.0046 µM |
| COc1cc(OC)c2oc(=O)ccc2c1 | C8166 | - | IIIB | ELISA | 102.9 µM |
| COc1ccc(/C=N/NC(=O)Nc2nonc2N)cc1 | HeLa | - | - | cell fusion / luminescence | >112 µM |
| NC(=O)c1ccc(NC(=O)c2ccccc2SSc2ccccc2C(=O)Nc2ccc(C(N)=O)cc2)cc1 | CEM | - | - | XTT | 2.3 µM |
| COc1c(Cl)cc(C(=CCC[C@@H](C)[C@H]2CCC3C4C(C[C@H](O)[C@@]32C)[C@@]2(C)CC[C@@H](O)C[C@H]2C[C@H]4O)c2cc(Cl)c(OC)c(C(=O)O)c2)cc1C(=O)O | MT-4 | - | IIIB | MTT | >50 µM |
| Cc1cc(C#N)cc(C)c1Oc1nc(Nc2ccc(C#N)cc2)ncc1SCC(=O)NC1CCN(C(=O)OC(C)(C)C)CC1 | MT-4 | - | IIIB | MTT | 0.0078 µM |
| NCCN | CEM | - | IIIB | - | 1000 µM |
| COC(=O)[C@H](C)NC(O)(Oc1ccccc1)Oc1nc(N(C)C)nc(C(C)c2c(F)cccc2F)c1C | MT-4 | K103N + Y181C | - | MTT | >25 µM |
| Cc1cc(C#N)cc(C)c1Oc1nc(Nc2ccc(C#N)cc2)ncc1SCC(=O)NCc1ccc(O)cc1 | MT-4 | F227L V106A | - | MTT | 0.3066 µM |

ECn is the concentration giving n% inhibition of infection, replication or growth. An empty or dashed field is not shown.